Laboratory results as given in patent publication US20100292135A1 (priority 2005, published 2010).

Chains of the proteins cited; added tags and fusions are not shown. Lines headed by an entry give the natural chain unless they say otherwise; changes in a name come on top.
UniProt P0A7G6: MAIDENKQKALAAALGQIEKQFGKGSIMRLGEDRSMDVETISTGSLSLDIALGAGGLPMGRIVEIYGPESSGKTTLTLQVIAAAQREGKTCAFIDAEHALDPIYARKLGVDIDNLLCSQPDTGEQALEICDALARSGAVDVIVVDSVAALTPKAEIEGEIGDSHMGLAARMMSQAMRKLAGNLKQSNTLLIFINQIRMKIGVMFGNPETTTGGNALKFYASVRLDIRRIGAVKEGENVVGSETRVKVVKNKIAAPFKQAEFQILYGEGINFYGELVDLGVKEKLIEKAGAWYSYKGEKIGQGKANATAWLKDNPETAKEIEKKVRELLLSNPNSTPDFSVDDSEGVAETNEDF

Columns and labels:
[1] = target: T1, RecA protein (Escherichia coli, UniProt P0A7G6); experiment: ssDNA-dependent RecA-catalyzed ATP hydrolysis (ATPase) assay; assay type: biochemical, E. coli; settings: components of the Zn complex tested separately
[2] = target: T1, RecA protein; experiment: Precipitation/aggregation of RecA in vitro (turbidity, visual inspection)

Substance | inhibition of RecA ATPase activity (in words) [1] | precipitation/aggregation of RecA in vitro [2] | concentration causing turbidity in the solution ([2]; visual inspection) [µM]
ZnCl2 | a degree of inhibition similar to the complex | inactivate the RecA protein in vitro by initiating protein aggregation | 200
Bi(NO3)3 | – | precipitates RecA in vitro | –
